Molecular target: Flagellin-sensing 3 (FLS3) of tomato (tomato)
Test: cell-based or functional assay

ESTNILQRMRELAVQSRNDSNSATDREA [Ps.tomato FlgII-28]
ROS activity in tomato leaf tissue, Average RLU value, 5 nM Flg polypeptide: 1.02e+06 RLU

From US20200170258A1 (SPOGEN BIOTECH, published 2020)
